Measured values from several laboratories, pooled; numbers as filed in NIAID ChemDB.

Shared fields: growth or infection tests; organism: HIV-1

ECn: concentration that inhibits the pathogen or its effect by n%. Blank or dashed fields: not listed here. Neighbouring rows are from separate reports.

structure,cells,method,mutations,measure,strain or isolate,value
COc1ccc(N(C)C(=O)[C@H](Cc2cc(F)cc(F)c2)Nc2ncc(-c3cnc(N[C@@H](Cc4cc(F)cc(F)c4)C(=O)N(C)c4ccc(OC)cc4)nc3)cn2)cc1,MT-2,luciferase,,EC50,NL4-3,13.68 µM
Cc1cccc2c(C(=O)C(=O)N3CCN(C(=O)c4ccccc4)CC3)c[nH]c12,MT-2,RT activity,,EC50,,<10 µM
COc1ccc(N(C)C(=O)[C@H](Cc2ccccc2)NC(=O)Cn2c(=O)n(CC(=O)N[C@@H](Cc3ccccc3)C(=O)N(C)c3ccc(OC)cc3)c3ccccc32)cc1,MT-2,luciferase,,EC50,NL4-3,0.07 µM
Cc1nc2cccc(CS(=O)(=O)N(CC3CCCC3)C[C@@H](O)CN(CCc3ccccc3)C(=O)c3ccccc3)c2o1,CEM,p24,,EC90,IIIB,1 µM
COc1ccc(N(C)C(=O)C(Cc2ccccc2)NC(=O)Cc2ccc(CC(=O)N[C@@H](Cc3ccccc3)C(=O)N(C)c3ccc(OC)cc3)cc2)cc1,MT-2,luciferase,,EC50,NL4-3,2.76 µM
Cc1cc(F)ccc1OCCNc1ccc(-c2cnc(C)c([C@H](OC(C)(C)C)C(=O)O)c2N2CCC(C)(C)CC2)cn1,MT-2,luminescence,,EC50,NL4-3,0.0025 µM
COc1ccc(S(=O)(=O)N(CC[C@H](O)Cc2ccccc2C(=O)NC(C)(C)C)CC(C)C)cc1,CEM,p24,,EC50,IIIB,<1 µM
COc1ccc(N(C)C(=O)[C@H](Cc2ccccc2)NC(=O)COc2nc3ccccc3n(CC(=O)N[C@@H](Cc3ccccc3)C(=O)N(C)c3ccc(OC)cc3)c2=O)cc1,MT-2,luciferase,,EC50,NL4-3,0.21 µM
Cc1cc(Cl)ccc1OCCN(C)c1ccc(-c2cnc(C)c([C@H](OC(C)(C)C)C(=O)O)c2N2CCC(C)(C)CC2)nc1,MT-2,luminescence,,EC50,NL4-3,0.0013 µM
Cc1ccc(CN2CCC(Nc3nc(Oc4c(C)cc(/C=C/C#N)cc4C)c4sccc4n3)CC2)cc1,MT-4,MTT,NNRTI-resistant (RT E138K),EC50,IIIB,0.0323 µM
C#CCN(C(=O)[C@H](Cc1ccccc1)NS(=O)(=O)NC(=O)N[C@@H](Cc1ccccc1)C(=O)N(CCC=C)c1ccc(OC)nc1)c1ccc(OC)nc1,MT-2,luciferase,,EC50,NL4-3,1.5 µM
Cc1cc(/C=C/C#N)cc(C)c1Oc1nc(NC2CCN(Cc3cccnc3)CC2)nc2ccsc12,MT-4,MTT,NNRTI-resistant (RT F227L V106A),EC50,IIIB,0.00582 µM
O=C(c1ccccc1)N(CCc1ccccc1)C[C@H](O)CN(CC1CCCC1)S(=O)(=O)c1ccncc1,CEM,p24,,EC50,IIIB,<1 µM
Cc1cc(/C=C/C#N)cc(C)c1Oc1nc(NC2CCN(Cc3cccc(Cl)c3)CC2)nc2ccsc12,MT-4,MTT,NNRTI-resistant (RT Y181C),EC50,IIIB,0.0711 µM
CC(C)CN(CC(O)Cc1ccccc1C(=O)NC(C)(C)C)S(=O)(=O)c1ccccc1,CEM,p24,,EC50,IIIB,<1 µM
COc1c(Cl)cc(S)cc1C(=O)N1CCN(C(=O)C(=O)c2c[nH]c3cccc(F)c23)CC1,HeLa + HELA CD4+/CCR5,luciferase,,EC50,,<10 µM
COc1cc(F)ccc1OCCNc1ccc(-c2cnc(C)c([C@H](OC(C)(C)C)C(=O)O)c2N2CCC(C)(C)CC2)nc1,MT-2,luminescence,,EC50,NL4-3,0.0013 µM
CC(C)(C)OC(=O)Nc1cccc(C(=O)N2CCN(C(=O)C(=O)c3c[nH]c4cccc(F)c34)CC2)c1,HeLa + HELA CD4+/CCR5,luciferase,,EC50,,<10 µM
COc1ccc(S(=O)(=O)N(CC2CCCC2)C(=O)C(=O)C(=O)N(CC2CCCC2)S(=O)(=O)c2ccccc2)cc1,CEM,p24,,EC90,IIIB,1 µM
O=C(O)c1cc(-n2cccc2)ccc1Cl,MT-2,p24,,EC50,IIIB X4 CLADE B,2.21 µM
COc1ccc(N(C)C(=O)C(Cc2ccccc2)NC(=O)c2cccc(C(=O)N[C@H](Cc3ccccc3)C(=O)N(C)c3ccc(OC)cc3)c2)cc1,MT-2,luciferase,,EC50,NL4-3,1.13 µM
O=C(C(=O)N1CCN(C(=O)c2ccccc2)CC1)c1c[nH]c2c(Cl)cccc12,MT-2,RT activity,,EC50,BRU,<10 µM
Cc1ccccc1CN1CCC(Nc2nc(Oc3c(C)cc(/C=C/C#N)cc3C)c3sccc3n2)CC1,MT-4,MTT,,EC50,RES056,0.829 µM
COc1ccc(S(=O)(=O)NC(CC(C)C)C(F)(F)C(=O)[C@@H](Cc2ccccc2)NC(=O)O[C@H]2CCOC2)cc1,CEM,p24,,EC50,IIIB,<1 µM
Nc1nc(NC2CC2)c2ncn([C@H]3C=C[C@@H](CO)C3)c2n1,PBMC,p24,,EC90,NL4-3 WT,2.5 µM
C[C@H]1CN(C(=O)c2ccccc2)CCN1C(=O)C(=O)c1c[nH]c2c([N+](=O)[O-])cccc12,HeLa + HELA CD4+/CCR5,luciferase,,EC50,,<10 µM
Cc1ncc(-c2ccc(OCC3(C)CC3)nc2)c(N2CCC(C)(C)CC2)c1[C@H](OC(C)(C)C)C(=O)O,MT-2,luminescence,,EC50,NL4-3,0.0075 µM
C[C@H]1CN(C(=O)c2ccccc2)CCN1C(=O)C(=O)c1c[nH]c2ccc(F)cc12,HeLa + HELA CD4+/CCR5,luciferase,,EC50,,<10 µM
Nc1nc(=O)n([C@H]2C=C[C@@H](CO)O2)cc1F,MT-4,p24,RT-T69SSS L210W T215Y,EC50,XM-T69SSS,<8.2 µM
CCOC(=O)c1ccc(CN2CCC(Nc3nc(Oc4c(C)cc(C#N)cc4C)c4ccsc4n3)CC2)cc1,MT-4,MTT,NNRTI-resistant (RT Y181C),EC50,IIIB,1.11 µM
CCCc1cc(=O)oc2c3c(c4c(c12)OC(C)(C)CC4)O[C@@H](C)[C@H](C)[C@@H]3O,CEM + CEM-SS,XTT,RT-V108I,EC50,Thiazolobenzimidazole-resistant (RT V108I),3.5 µM
Nc1ccccc1C(=O)N1CCN(C(=O)C(=O)c2c[nH]c3ccccc23)CC1,HeLa + HELA CD4+/CCR5,luciferase,,EC50,,>10 µM
Cc1ccc(OCCOc2ccc(-c3cnc(C)c([C@H](OC(C)(C)C)C(=O)O)c3N3CCC(C)(C)CC3)cn2)c(Cl)c1,MT-2,luminescence,,EC50,NL4-3,0.0045 µM
CN(C(=O)[C@H](Cc1cc(F)cc(F)c1)NC(=O)/C=C\C(=O)N[C@@H](Cc1cc(F)cc(F)c1)C(=O)N(C)c1ccc2scnc2c1)c1ccc2scnc2c1,MT-2,luciferase,,EC50,NL4-3,0.08 µM
Cc1cc(/C=C/C#N)cc(C)c1Oc1nc(NC2CCN(Cc3cccc(C(N)=O)c3)CC2)nc2ccsc12,MT-4,MTT,,EC50,RES056,0.0438 µM
Cc1nc2cc(N(C)C(=O)[C@H](Cc3cc(F)cc(F)c3)NC(=O)c3ccc(F)c(C(=O)N[C@@H](Cc4cc(F)cc(F)c4)C(=O)N(C)c4ccc5sc(C)nc5c4)c3)ccc2s1,MT-2,luciferase,,EC50,NL4-3,0.18 µM
COP(=O)(c1cc(C)cc(CCC#N)c1)c1c(C(N)=O)[nH]c2ccc(Cl)cc12,PBMC,,,EC50,BH10,0.0004 µM
Cc1ncc(-c2ccc(N(C)CCOc3ccc(C(N)=O)cc3)cn2)c(N2CCC(C)(C)CC2)c1[C@H](OC(C)(C)C)C(=O)O,MT-2,luminescence,,EC50,NL4-3,0.5012 µM

For reference, 4 entries again:

structure | cells | method | mutations | measure | strain or isolate | value
CC(C)(C)OC(=O)Nc1cccc(C(=O)N2CCN(C(=O)C(=O)c3c[nH]c4cccc(F)c34)CC2)c1 | HeLa + HELA CD4+/CCR5 | luciferase |  | EC50 |  | <10 µM
Cc1ncc(-c2ccc(OCC3(C)CC3)nc2)c(N2CCC(C)(C)CC2)c1[C@H](OC(C)(C)C)C(=O)O | MT-2 | luminescence |  | EC50 | NL4-3 | 0.0075 µM
COc1c(Cl)cc(S)cc1C(=O)N1CCN(C(=O)C(=O)c2c[nH]c3cccc(F)c23)CC1 | HeLa + HELA CD4+/CCR5 | luciferase |  | EC50 |  | <10 µM
Nc1nc(NC2CC2)c2ncn([C@H]3C=C[C@@H](CO)C3)c2n1 | PBMC | p24 |  | EC90 | NL4-3 WT | 2.5 µM